Among the data in PubChem BioAssay AID1800 (The Scripps Research Institute Molecular Screening Center, 2009) are inhibition values, retold here.

The list shows a part of the results, in another mix than the full data. Activity calls are given as the source filed them.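 Rule for the calls: active = inhibition above the mean of all tested compounds plus 3 SD, set per campaign (cut at about 35% in these data); inactive = the rest.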

This assay relates to Hepatitis C virus NS3 helicase. In words: HCV NS3 DNA unwinding blockers – biochemical, Cy5 molecular beacon fluorescence, primary screen (AID 1800).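 Note: 0% = DMSO wells and 100% = thioflavine S control wells.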 The note with it: at 10.9 µM, stronger effect = higher value. The method, boiled down:
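System: Hepatitis C virus NS3 helicase domain fragment enzyme | Reagent: Annealed dual-labelled DNA beacon duplex, ATP-started | Compound dosing: 10.9 µM single point, 0.8% DMSO | Incubation: 1 h reaction at 25 °C, ATP-initiated | Technique: Cy5 fluorescence | Evaluation: Percent inhibition from t60/t0 fluorescence ratio | Benchmarks: Low DMSO, high thioflavine S at 110 µM | Replication: Singlicate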
Consider `COc1ccccc1OP(=O)(Nc1ccc(C)cn1)Oc1ccccc1OC`, for which the inhibition is inactive: 0.22%.

Consider `Clc1ccc(Cl)c(NC2=NCC(CBr)S2)c1` (stereo not drawn), for which the inhibition is inactive: -13%.

As to `CN1CCCC(OC(=O)C(c2ccccc2)c2ccccc2)C1` (stereo not drawn), the inhibition was inactive: -5.38%.

Regarding `NC(=O)c1cc([N+](=O)[O-])cc([N+](=O)[O-])c1N`, the inhibition is inactive: -4.94%. In the case of `Cc1ccc(N/C(=N/P(=O)(N2CCOCC2)N2CCOCC2)N2CCOCC2)cc1` it was inactive: 13.6%. Take `COc1ccc(N/C(=N/P(=O)(N2CCOCC2)N2CCOCC2)N2CCOCC2)cc1`: the inhibition is inactive: -0.26%. For the compound `COc1cc(I)ccc1[As](=O)(O)O`, the inhibition is inactive: 1.73%. In the case of `COc1ccc2nc(NP(=O)(c3ccccc3)c3ccccc3)sc2c1` it was inactive: -0.77%; in that of `Cc1cc(=O)[nH]c(N[N+](=O)[O-])n1`, inactive: -3.32%; in that of `O=C(OC1CN2CCC1CC2)C12CC3CC(CC(C3)C1)C2` (stereo not drawn), inactive: 0.07%. As to `Cc1c2c(nc3ccccc13)SC(C(Cl)Cl)C2` (stereo not drawn), the inhibition is inactive: -1.19%. `O=[N+]([O-])c1cc([N+](=O)[O-])c(-c2ccn[nH]2)s1`: the inhibition was inactive: 18.4%.

Regarding `CCN(CC)C(=S)SC(NC=O)C(Cl)(Cl)Cl` (stereo not drawn), the inhibition is inactive: -2.48%. Take `CC(C)NC(=O)NP(=O)(Oc1ccccc1)Oc1ccccc1`: the inhibition is inactive: -0.98%.

As to `CC(C)c1ccc(OP(=O)(Nc2ccccn2)Oc2ccccc2F)cc1` (stereo not drawn), the inhibition is inactive: 4.84%. In the case of `ClCCSc1nnc(-c2cccnc2)o1` it was inactive: -2.85%; in that of `Cc1ccc2nc3c(c(C)c2c1)CC(C(Cl)Cl)S3` (stereo not drawn), inactive: 0.31%. The result for `Cc1ccc(OP(=O)(Nc2ccc([N+](=O)[O-])cn2)Oc2ccc(C)cc2)cc1` reads inactive: -1.73%; that for `O=[As](O)(c1ccc(O)cc1)c1ccccc1O`, inactive: 18.6%; that for `C[As](=O)(O)c1cccc(C(=O)O)c1`, inactive: -1.13%.

Regarding `O=[N+]([O-])c1ccc(Nc2ccc(Oc3ccc([N+](=O)[O-])cc3[N+](=O)[O-])cc2)c([N+](=O)[O-])c1`, the inhibition was inactive: 1.63%. Take `Cc1cc(SC(NC=O)C(Cl)(Cl)Cl)ncn1` (stereo not drawn): the inhibition was inactive: -8.65%.

On to `O=P(Nc1ccccn1)(c1cccc2ccccc12)c1cccc2ccccc12`, for which the inhibition was inactive: 1.16%.

Consider `CCOC(=O)Nc1cccc([As](=O)(O)O)c1`, for which the inhibition is inactive: 1.96%. The result for `Cc1cc(SC(NC(=O)c2ccccc2)C(Cl)(Cl)Cl)nc(C(C)C)n1` (stereo not drawn) reads inactive: 7.85%; that for `CCCCOc1ccc(C(=O)NCC2(N3CCCCC3)CCCCC2)cc1OC`, inactive: -5.65%.

With `CCOC(=O)Nc1ccc([As](=O)(O)O)c(O)c1`, the inhibition is inactive: -7.19%. The result for `CCC(C)N(CC(C)C)C(=S)SC(NC(C)=O)C(Cl)(Cl)Cl` (stereo not drawn) reads inactive: -0.84%.
